Laboratory results as given in patent publication EP4831293A1, “BIOSYNTHETIC GENE CLUSTER FOR POLYENE MACROLIDE NATURAL PRODUCT MANDIMYCIN, AND NATURAL PRODUCT AND USE THEREOF” (dated 2026).
Structures were worked out from names or drawings and are uncertain.

Assays:
[1] = test system: Candida albicans BNCC 186382; assay: Mouse model of invasive candidiasis (survival); conditions: 10 mg/kg once daily for four days, monitored 20 days
Method: Specific pathogen-free female ICR mice (Hangzhou Medical College, China), aged 6 weeks and weighing 23-27 g, were used. The mice were randomly housed, with six mice per cage, and were acclimated for three days prior to the experiment. To induce immunosuppression, the mice received intraperitoneal injections of cyclophosphamide (200 mg/kg) and subcutaneous injections of cortisone acetate (500 mg/kg) on Day -2 and Day +3, respectively. To prevent cross-infection, the mice received enrofloxacin in drinking water at a concentration of 50 µg/mL from Day 1 to Day 3, followed by subcutaneous injection of ceftazidime (200 µg/kg) from Day 0 to Day 9. Invasive candidiasis was induced by intravenous injection of 1 × 10^6 CFU of Candida albicans BNCC 186382. Treatment was initiated 16 h after infection, including subcutaneous injection of mandimycin (formulated in 10% DMSO and 10% Tween 80) at doses of 1 mg/kg, 5 mg/kg, 10 mg/kg, and 20 mg/kg once daily for four consecutive days, together with amphotericin B at a dose of 10 mg/kg. The mice were monitored for a total of 20 days. Survival curves were plotted using GraphPad Prism 9. When mandimycin was administered at a dose of 10 mg/kg, a survival rate of mice reached 100%.

[2] = test system: Candida albicans BNCC 186382; assay: Effect of added fungal cell components on the MIC (broth dilution)
Method: The effects of the addition of eukaryotic membrane phospholipid components (including phosphatidylinositol, phosphatidylserine, phosphatidylethanolamine, phosphatidylglycerol, lecithin, sphingomyelin, and cardiolipin), ergosterol and cell wall components β-1,3-glucan and mannan, on the antifungal activity of mandimycin were evaluated using Candida albicans BNCC 186382 and the broth dilution method. Various membrane components used in the experiments were dissolved in 10% DMSO to prepare the concentrations required for the experiment, followed by addition to the culture medium used for MIC determination of mandimycin. The effects of fungal cell membrane components on the MIC of mandimycin were then observed. […] Specifically, as the concentration of lecithin increased, the fold-change in the MIC of mandimycin against Candida albicans increased from 1-fold to 128-fold. As the concentrations of cardiolipin, phosphatidylinositol, phosphatidylserine, phosphatidylethanolamine, and sphingomyelin increased, the fold-change in the MIC of mandimycin increased from 1-fold to 64-fold. As the concentration of phosphatidylglycerol increased, the fold-change in the MIC of mandimycin increased from 1-fold to 32-fold.

[3] = test system: Candida albicans BNCC 186382; assay: Mouse model of vaginal infection; conditions: 10 mg/kg, subcutaneous injection, once daily, 5 days
Method: Female BALB/c mice, weighing 19-21 g, were acclimated for three days prior to the experiment. The mice were randomly housed, with four mice per cage, and were acclimated for three days prior to the experiment. On Day 1, the mice received subcutaneous injections of estradiol benzoate at a dose of 10 mg/kg once daily for five consecutive days to induce estrus. On Day 6, 50 µL of a suspension of Candida albicans BNCC 186382 (1 × 10^10 CFU/mL) was inoculated intravaginally into each mouse using a pipette. Following vaginal inoculation, the mice were maintained in an inverted position for 5 min. After three consecutive days of infection, the mice were maintained under normal feeding conditions for one day and subsequently received subcutaneous injections of mandimycin (10 mg/kg), amphotericin B (10 mg/kg), rezafungin (10 mg/kg), or isavuconazole (10 mg/kg) once daily for five consecutive days. The mice infected with Candida albicans but not treated with the compounds served as a control group and were injected with PBS containing 10% DMSO and 10% Tween 80. On the day following the final administration, the vaginae of the mice were repeatedly lavaged with sterile PBS (20 µL), and the vaginal lavage fluids were aspirated using pipettes. The samples were cultured on MRS agar plates for enumeration of Candida albicans colonies. Finally, all animals were anesthetized and euthanized using diethyl ether, and vaginal tissues were collected.

COC1CC(OC2C(O)CC(OC3C(C)C=CCCC=CC=CC=CC=CC=CC(OC4OC(C)C(O)C(N)C4O)CC4OC(O)(CC(O)C(O)CCC(O)CC(=O)CC(O)CC(=O)OC(C)C3C)CC(O)C4C(=O)O)OC2C)OC(C)C1O (stereo not drawn)
survival rate of mice [1]: 100% | inhibition of antifungal activity by added ergosterol ([2]; ergosterol added to MIC medium): did not inhibit | inhibition of antifungal activity by added β-1,3-glucan ([2]; β-1,3-glucan added to MIC medium): did not inhibit | inflammation [3]: markedly alleviated | vaginal fungal burden reduced by [3]: 2.51 log10 CFU | vaginal mucosa [3]: almost completely restored
